The assay concerns the target Acetylcholinesterase (Homo sapiens, UniProt P22303). Briefly: Inhibition of human AChE using acetylthiocholine as substrate after 4 hrs by robotic spectrophotometric assay.

The chains behind the UniProt entries cited, without tags or fusion partners. Residues count along the entry.
UniProt P22303, 32-614 limits assumed: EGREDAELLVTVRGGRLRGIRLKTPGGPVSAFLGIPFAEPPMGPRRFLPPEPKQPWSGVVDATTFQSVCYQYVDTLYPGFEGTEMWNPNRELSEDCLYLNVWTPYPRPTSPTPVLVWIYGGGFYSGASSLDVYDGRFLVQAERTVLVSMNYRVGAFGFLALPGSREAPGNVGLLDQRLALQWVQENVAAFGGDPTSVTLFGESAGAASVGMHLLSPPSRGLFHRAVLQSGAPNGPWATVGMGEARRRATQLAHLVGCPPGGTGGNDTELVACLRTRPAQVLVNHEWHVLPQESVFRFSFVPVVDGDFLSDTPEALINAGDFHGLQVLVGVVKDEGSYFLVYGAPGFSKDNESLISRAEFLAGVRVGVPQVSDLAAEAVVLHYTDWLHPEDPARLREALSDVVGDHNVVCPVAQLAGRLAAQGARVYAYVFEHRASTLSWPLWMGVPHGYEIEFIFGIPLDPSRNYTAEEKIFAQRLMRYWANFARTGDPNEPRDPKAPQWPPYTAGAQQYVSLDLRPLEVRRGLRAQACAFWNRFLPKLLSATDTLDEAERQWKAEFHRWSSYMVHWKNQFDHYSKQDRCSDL

For orientation: Ki means the dissociation constant of the complex between target and ligand, obtained from inhibition or displacement. Low readings indicate higher affinity, high ones lower affinity. As for `N#C/C(=N\O)C(=O)NCCCNc1c2c(nc3ccccc13)CCCC2`, the Ki is 3.08 µM. Next, `O=C(/C=N/O)NCCCCNc1c2c(nc3ccccc13)CCCC2`: 1.49 µM. `O=C(/C=N/O)NCCCNc1c2c(nc3ccccc13)CCCC2` yielded a Ki of 6.22 µM.

Turning to `O=C(/C=N/O)c1cnc(OCC2CCN(Cc3ccccc3)CC2)nc1`, the Ki was found to be 55.2 µM.

Regarding `O=C(/C=N/O)c1ccc(OCC2CCN(Cc3ccccc3)CC2)nc1`, the affinity corresponds to a Ki of 31.2 µM.

As to `CC(=O)/C=N/O`, the Ki entry is “Not Active”.

Values taken from ChEMBL document CHEMBL3232718, “Design, synthesis, and characterization of novel, nonquaternary reactivators of GF-inhibited human acetylcholinesterase” (2014).
